Measurements from paper PMC4505445, “Identification of a Compound That Disrupts Binding of Amyloid-β to the Prion Protein Using a Novel Fluorescence-based Assay*” (The Journal of Biological Chemistry, 2015).

These substances were tested against Aβ oligomers (from synthetic Aβ1–42), not stated, P05067 672-713.

Q: With “human prion protein 23–231 labeled with NBD at position 198 NBD (from IANBD ester) on the cysteine introduced at position 198” as the substance, how does the result read?
A: binds

Q: How did the result turn out when “human prion protein 23–231 labeled with NBD at position 99 NBD (from IANBD ester) on the cysteine introduced at position 99” was run?
A: binds

Q: With “human prion protein 23–231 labeled with NBD at position 149 NBD (from IANBD ester) on the cysteine introduced at position 149” as the substance, how does the result read?
A: binds

Q: With “human prion protein 23–231 labeled with NBD at position 145 NBD (from IANBD ester) on the cysteine introduced at position 145” as the substance, how does the result read?
A: binds

Q: Which result does the source give for “human prion protein 23–231 labeled with NBD at position 218 NBD (from IANBD ester) on the cysteine introduced at position 218” here?
A: binds

Q: Which result does the source give for “human prion protein 23–231 labeled with NBD at position 31 NBD (from IANBD ester) on the cysteine introduced at position 31” here?
A: binds
